Where a SMILES comes first, the peptide text is derived from it. [ ]: non-standard residue; d: D form.

The test system of this series is human red blood cells (RBC). The format is cell-based. The note with it: calculated as LD50/MIC. How it is done: FIG. 7: The in vitro toxicity of soluble DGL13K and PEG-pro-DGL 13K was tested against human Red Blood Cells and hemolysis recorded (% lysis compared to dH2O).
The dose causing lysis of 50% (LD50) of human red blood cells (RBC) was determined and the therapeutic index (Tx Indx) was calculated as LD50/MIC.
As for `CC[C@@H](C)[C@@H](NC(=O)[C@@H](CCCCN)NC(=O)CN)C(=O)N[C@@H](C(=O)N[C@H](CCCCN)C(=O)N[C@H](CC(C)C)C(=O)N[C@H](CCCCN)C(=O)N[C@H](C)C(=O)N[C@H](CO)C(=O)N[C@H](CC(C)C)C(=O)N[C@H](CCCCN)C(=O)N[C@H](CC(C)C)C(=O)N[C@H](CC(C)C)C(N)=O)[C@H](C)CC` [DGL13K, NH2-Gly-d-Lys-d-Ile-d-Ile-d-Lys-d-Leu-d-Lys-d-Ala-d-Ser-d-Leu-d-Lys-d-Leu-d-Leu-CONH2] (H-G[dK][dI][dI][dK][dL][dK][dA][dS][dL][dK][dL][dL]-NH2), the “Tx Indx (therapeutic index)” value was 96-384 X.
Next, `CC[C@@H](C)[C@@H](NC(=O)[C@@H](CCCNC(=N)N)NC(=O)CN)C(=O)N[C@@H](C(=O)N[C@H](CCCNC(=N)N)C(=O)N[C@H](CC(C)C)C(=O)N[C@H](CCCNC(=N)N)C(=O)N[C@H](C)C(=O)N[C@H](CO)C(=O)N[C@H](CC(C)C)C(=O)N[C@H](CCCNC(=N)N)C(=O)N[C@H](CC(C)C)C(=O)N[C@H](CC(C)C)C(N)=O)[C@H](C)CC` [DGL13R, NH2-Gly-d-Arg-d-Ile-d-Ile-d-Arg-d-Leu-d-Arg-d-Ala-d-Ser-d-Leu-d-Arg-d-Leu-d-Leu-CONH2] (H-G[dR][dI][dI][dR][dL][dR][dA][dS][dL][dR][dL][dL]-NH2): 192-384 X; H-GKIIKLKASLKLL-NH2 [LGL13K]: 9-18 X.

(Values after patent publication US12441773B2, “Peptides, hydrogel compositions and methods of use thereof” (Regents of the University of Minnesota, priority 2019, dated 2025).)
